Anti-infective test results gathered from many reports (values: NIAID ChemDB through PubChem).

All rows: whole-cell or culture tests; organism: Herpes simplex virus 2; method: cytopathic effect; endpoint: EC50

ECn: concentration that inhibits the pathogen or its effect by n%. Two numbers with a dash give a range or band. Blank or dashed fields: not listed here. Neighbouring rows are from separate reports.

SMILES,strain or isolate,cell line,result
NSc1ncnc2c1ncn2[C@H]1C[C@H](O)[C@@H](CO)O1,-,-,>320 µM
O=c1[nH]c(=O)n([C@H]2C[C@H](O)[C@@H](CO)O2)cc1I,196,PRK,1 µg/mL
Nc1nc(=O)n([C@H]2C[C@H](O)[C@@H](CO)O2)cc1/C=C\Cl,LYONS,PRK,10 µg/mL
NC(=O)CSc1ncnc2c1cnn2CCCCO,G,E6SM,>400 µg/mL
CC[C@H](O)C1=C[C@@H](n2cnc3c(N)ncnc32)[C@H](O)[C@@H]1O,G,E6SM,>200 µg/mL
C=Cc1cc([C@H]2C[C@H](O)[C@@H](CO)O2)c(F)cc1F,G,E6SM,>400 µg/mL
NC(=O)CSc1ncnc2c1cnn2COCCO,G,E6SM,>400 µg/mL
O=c1[nH]c(=O)n([C@@H]2OC3COP(=O)(O)OC3[C@H]2O)cc1I,G,PRK,>400 µg/mL
NS(=O)c1ncnc2c1ncn2[C@@H]1O[C@H](CO)[C@@H](O)[C@@H]1O,-,-,>320 µM
COc1nc(=O)n([C@H]2C[C@H](O)[C@@H](CO)O2)cc1/C=C/Cl,LYONS,PRK,70 µg/mL
Nc1nc2c(ncn2COCCO)c(=O)[nH]1,MS,WI-38,0.31 µg/mL
CC[C@@]1(Br)C(=O)NC(=O)N([C@H]2C[C@H](O)[C@@H](CO)O2)[C@H]1OC,MS,HFF,0.13 µM
CC[C@@H](O)C1=C[C@@H](n2cnc3c(N)ncnc32)[C@H](O)[C@@H]1O,G,E6SM,>400 µg/mL
O=c1[nH]c(=O)n([C@H]2C[C@H](O)[C@@H](COP(=O)([O-])OP(=O)([O-])OC[C@@H]3OC(O)[C@H](O)[C@H](O)[C@H]3O)O2)cc1I,G,PRK,2 µg/mL
Nc1ncnc2c1ncn2[C@@H]1C=C(CO)[C@@H](O)[C@H]1O,G,E6SM,≥40 µg/mL
C=C(C)C(O)Cc1c(O)c(C(C)=O)c(O)c(C(=O)CC(C)C)c1O,-,VERO,3 µM
Nc1nc(Cl)c2ncn(COCCO)c2n1,-,PRK,20 µg/mL
NSc1ncnc2c1ncn2[C@@H]1O[C@H](CO)[C@@H](O)[C@@H]1O,-,-,>320 µM
CO[C@H](CO)[C@@H](O)CCn1cnc2c(=O)[nH]c(N)nc21,196,E6SM,>400 µg/mL
O=c1[nH]c(=O)n([C@H]2C[C@H](O)[C@@H](COP(=O)(O)O)O2)cc1I,LYONS,PRK,0.1 µg/mL
Cc1cn(CC[C@H](O)CCO)c(=O)[nH]c1=O,LYONS,E6SM,>400 µg/mL
Nc1nc2c(ncn2COCCO)c(=O)[nH]1,V74269 (acyclovir-susceptible),HFF,1 µg/mL
O=C(O)C(O[C@@H]1C=C[C@H](n2cc(F)c(=O)[nH]c2=O)C1)P(=O)(O)O,G,HEL,>250 µM
CC1COc2c(N3CCN(C)CC3)c(F)cc3c(=O)c(C(=O)O)cn1c23,UW,HeLa,250 µg/mL
CCCCNc1cn([C@@H]2C[C@H](CO)[C@@H](O)C2)c(=O)[nH]c1=O,MS,VERO,229 µg/mL
CCC(Sc1ncnc2c1cnn2COCC(O)CO)C(N)=O,G,E6SM,>400 µg/mL
Nc1ncnc2c1ncn2C[C@H](O)CO,333,PRK,4–10 µg/mL
O=c1[nH]c(=O)n(COCCO)cc1Cl,-,PRK,>400 µg/mL
Cc1cn([C@@H]2C[C@H](CO)[C@@H](O)C2)c(=O)[nH]c1=O,MS,VERO,7 µg/mL
Nc1ccn(CC[C@H](O)CCO)c(=O)n1,196,E6SM,>400 µg/mL
Nc1nc(N)c2nnn([C@H]3CC[C@H](O)[C@H]3CO)c2n1,MS,PRK,10 µg/mL
Cc1cn([C@@H]2C[C@H](OC(C(=O)O)P(=O)(O)O)[C@@H](O)[C@H]2O)c(=O)[nH]c1=O,G,HEL,>250 µM
O=c1[nH]c(=O)n([C@@H]2C[C@H](CO)[C@@H](O)C2)cc1Br,MS,VERO,20 µg/mL
O=c1[nH]c(=O)n(COCCO)cc1Br,-,PRK,>400 µg/mL